# Measured values reported in article PMC7952403 (Nature Communications, 2021).
# Molecular target: T1, SARS-CoV-2 S1-S2 spike ectodomain with 6xHis tag, produced in High Five cells (SARS-CoV-2 Wuhan-Hu-1 (MN908947 / …, UniProt P0DTC2, […] | “GSAS” substitution at the furin site, residues 682–685)
# T1 construct: also called S1-S2-His; S1-S2 trimer; not shown: 6xHis, C-terminal, kept
# Test: flow cytometry on cells
# Conditions: both partners purified
row,Binder,inhibition of S1-S2 binding to ACE2-positive cells at 1500 nM scFv-Fc [%]
1,"STE73-2B2 scFv-Fc (scFv, V domains shown, also called scFv-hFc; source: Expi293F, transient transfection, purified (Protein A)) VH: QVQLVQSGAEVKKPGASVKVSCKASGYTFTGYYMHWVRQAPGQGLEWMGWINPNSGGTNYAQKFQGRVTITRDTSASTAYMELSSLRSEDTAVYYCARVSGWYFGAFDIWGQGTMVTVSS VL: LPVLTQPHSLSESPGKTVNISCTGSSGSIASNYVQWYQQRPGSAPTTVIYEDSHRPSGVPDRFSGSIDSSSNSASLSISGLKTEDEADYYCQSYDSSNNQWVFGGGTKLTVL",> 75
2,"STE73-6C8 scFv-Fc (scFv, V domains shown, also called scFv-hFc; source: Expi293F, transient transfection, purified (Protein A)) VH: QVQLQQSGAEVKKPGSSVKVSCKASGGTFSSYAISWVRQAPGQGLEWMGRIIPILGIANYAQKFQGRVTITADKSTSTAYMELSSLRSEDTAVYYCARSIAALNWFDPWGQGTLVTVSS VL: NFMLTQPHSVSESPGKTVTIPCTGSRGSIANNYVQWYRQRPGRAPTTVIFEDNQRPSGVPDRFSGSIDRSSNSASLTISGLETEDEADYYCQSYDGSNVIFGGGTKLTVL",> 75
3,"STE72-1B6 scFv-Fc (scFv, V domains shown, also called scFv-hFc; source: Expi293F, transient transfection, purified (Protein A)) VH: QVKLVQSGGGLVQPGGSLRLSCAASGFTFSSYAMSWVRQAPGKGLEWVSGISGSGGSTYYADSVKGRFTISRDNSKNTLYLQVNSLRAEDTAVYYCAKAPYGDFRGLWYFDYWGQGTLVTVSS VL: DIVMTQSPFSVSASVGDRVTISCRASQDIRSWLAWYQQKPGKAPQLLIYDASSLQSGVPSRFSGSGSGTDFTLTISSLQPEDFATYYCQQADSVPLTFGGGTKVEIQ",> 75
4,"STE72-8E1 scFv-Fc (scFv, V domains shown, also called scFv-hFc; source: Expi293F, transient transfection, purified (Protein A)) VH: QVQLQEWGPGLVQPSETLSLTCTVSGGSISSGGYYWSWIRQHPGKGLEWIGRIYPSGSTNYNPSLKSRVTMSVDTSENQFSLKLSSVTAADTAVYYCARGGPKRSGSPFDVWGQGTMVTVSS VL: EVVMTQSPSTLSASVGDRVTITCRASQTFGPWLAWYQQKPGQAPKLLIYMASELESGVPSRFSGSGSGTEFTLSISSLQPDDFATYYCQQYNTFSPWTFGQGTKVDIK",> 75
5,"STE72-1G5 scFv-Fc (scFv, V domains shown, also called scFv-hFc; source: Expi293F, transient transfection, purified (Protein A)) VH: QVQLVQSGAEVKKPGASVKVSCKASGGTFSSYAISWVRQAPGQGLEWMGGIIPIFGTANYAQKFQGRVTITADESTSTAYMELSSLRSEDTAVYYCAVGGVQLWLTYWGQGTLVTVSS VL: ETTLTQSPGALSLSPGERATLSCRVSQSLSSNSLAWYQQKPGQAPRLLIYDTSIRATGIPDRFSGSGSGTDFTLTISRLEPEDFAVYYCHKYGSWPRTFGQGTKVEV",> 75
6,"STE72-2G4 scFv-Fc (scFv, V domains shown, also called scFv-hFc; source: Expi293F, transient transfection, purified (Protein A)) VH: QVQLVQSGAEVKKPGASVKVSCKASGYTFTSYGISWVRQAPGQGLEWMGWISAYNGNTNYAQKLQGRVTMTTDTSTSTAYMELRSLRSDDTAVYYCARFFYDSSGYSTDYWGQGTLVTVSS VL: ETTLTQSPAFMSVTPGDRAILSCRASQSVDSHLAWYHQKPGQPPRLLIYGASTRATGIPARFSGSRSGTEFTLTISGLQSEDLGVYYCQQYASWPPGYNFGQGTKLEIK",> 75
7,"STE72-4E12 scFv-Fc (scFv, V domains shown, also called scFv-hFc; source: Expi293F, transient transfection, purified (Protein A)) VH: QVQLVQSGAEVKKPGASVKVSCKASGYTFTSYYMHWVRQAPGQGLEWMGIINPSGGSTSYAQKFQGRVTMTRDTSTSTVYMELSSLRSEDTAVYYCARDLSGGLDYWGQGTLVTVSS VL: ETTLTQSPATLSVSPGERVTLACRAGQTISSKLAWYRQKPGQAPSLLIYDASTRATGVPARFSGSGSGTEFTLTISSLQSEDFAVYYCQQYSDWPPTFGQGTKVEIK",> 75
8,"STE73-2G8 scFv-Fc (scFv, V domains shown, also called scFv-hFc; source: Expi293F, transient transfection, purified (Protein A)) VH: QVQLVQSGGGLVKPGGSLRLSCAASGITVSSNYMSWVRQAPGKGLEWVSILYSGGTTFYTDSVKGRFTISRDNSKNTLHLQMNSLRAEDTAVYYCARWSGTYYDYWGQGTLVTVSS VL: SSELTQDPAVSVALGQTVRITCQGDSLRSYYASWYQQKPGQAPVLVIYGKNNRPSGIPDRFSGSSSGNTASLTITGAQAEDEADYYCNSRDSTNDPVLFGAGTKLTVL",> 75
9,"STE70-1E12 scFv-Fc (scFv, V domains shown, also called scFv-hFc; source: Expi293F, transient transfection, purified (Protein A)) VH: QMQLVQSGAEVKKPGASVKVSCKASGYTFTGYYMHWVRQAPGQGLEWMGRINPNSGGTNYAQKFQGRVTMTRDTSTSTAYMELSRLRSDDTAVYYCVRDGYNFNNWFDPWGQGTLVTVSS VL: NFMLTQPHSVSGSPGETITISCTGSGGSIASNYVQWYRQRPGSAPTIVIYEDTQRPSGVPDRFSGSIDSSSNSASLTISGLKTEDEADYYCQSSESTNHVMFGGGSKLTVL",> 75
10,"STE73-6C1 scFv-Fc (scFv, V domains shown, also called scFv-hFc; source: Expi293F, transient transfection, purified (Protein A)) VH: QVQLVQSGGGVVQPGRSLRLSCAASGFTFSSYAMHWVRQAPGKGLEWVAVISYDGSNKYYADSVKGRFTISRDNSKNTLYLQMNSLRAEDTAVYYCARSYVGGMDVWGQGTTVTVSS VL: QLVLTQSPSVSGAPGQSVTISCTGTDSNIGAGYNVHWYQQLPGAAPKLIISYTDNRPSGVPDRFSGSKSGTSASLAITGLQAEDEADYYCQSSDRTLVGSLFGTGTKVTVL",> 75
11,"STE73-9G3 scFv-Fc (scFv, V domains shown, also called scFv-hFc; source: Expi293F, transient transfection, purified (Protein A)) VH: QVQLQESGGGLVQPGGSLRLSCAASGFTFSSYAMSWVRQAPGKGLEWVSAISGSGGSTYYADSVKGRFTISRDNSKNTLYLQMNSLRAEDTAVYYCARDLVLGSGSSNDWGRGTLVTVSS VL: QPVLTQPPSVSGAPGQSVTISCTGTDSNIGAGYNVHWYQQLPGAAPKLIISYTDNRPSGVPDRFSGSKSGTSASLAITGLQAEDEADYYCQSSDRTLVGSLFGTGTKVTVL",> 75
12,"STE72-4C10 scFv-Fc (scFv, V domains shown, also called scFv-hFc; source: Expi293F, transient transfection, purified (Protein A)) VH: EVQLQESGGGVVQPGRSLRLSCAASGFTFSSYAMHWVRQAPGKGLEWVAVISYDGSNKYYADSVKGRFTISRDNSKNTLYLQMNSLRAEDTAVYYCAREYSSSWYGLGAFDIWGQGTMVTVSS VL: DIRLTQSPSSLSASVGDRVTITCRASQNIHYYLNWYQQKPGKAPSLLVYGASSLQSGVPSRFSGSGSGTEYTLTISSLQPEDFATYFCQQSFKSPATFGQGTKVDIK",> 75
13,"STE73-2C2 scFv-Fc (scFv, V domains shown, also called scFv-hFc; source: Expi293F, transient transfection, purified (Protein A)) VH: QVQLVESGGGLVQPGGSLRLSCAASGITVSSNYMSWVRQAPGKGLEWVSVIYSGGSTFYADSVKGRFTISRDNSKNTLYLQMNSLRAEDTGVYYCARGHDNLDYWGQGTLVTVSS VL: LPVLTQPHSVSESPGKTVIISCTGSSDSIASNYVQWYQQRPGSAPTTVIYEDNKRPSGVPDRFSGSTDSSSNSASLTISGLKTEDEAEYYCQSYDSNNHWVFGGGTKLTVL",> 75
